Source: patent US20070219212A1, “Pyranouidole Derivatives and the Use Thereof for the Treatment of Hepatitis C Virus Infection or Disease” (priority 2004, published 2007)

Amino acid sequences for entries named in this document (tags omitted). Residues count along the entry.
UniProt P26663, 2420-2989 limits assumed: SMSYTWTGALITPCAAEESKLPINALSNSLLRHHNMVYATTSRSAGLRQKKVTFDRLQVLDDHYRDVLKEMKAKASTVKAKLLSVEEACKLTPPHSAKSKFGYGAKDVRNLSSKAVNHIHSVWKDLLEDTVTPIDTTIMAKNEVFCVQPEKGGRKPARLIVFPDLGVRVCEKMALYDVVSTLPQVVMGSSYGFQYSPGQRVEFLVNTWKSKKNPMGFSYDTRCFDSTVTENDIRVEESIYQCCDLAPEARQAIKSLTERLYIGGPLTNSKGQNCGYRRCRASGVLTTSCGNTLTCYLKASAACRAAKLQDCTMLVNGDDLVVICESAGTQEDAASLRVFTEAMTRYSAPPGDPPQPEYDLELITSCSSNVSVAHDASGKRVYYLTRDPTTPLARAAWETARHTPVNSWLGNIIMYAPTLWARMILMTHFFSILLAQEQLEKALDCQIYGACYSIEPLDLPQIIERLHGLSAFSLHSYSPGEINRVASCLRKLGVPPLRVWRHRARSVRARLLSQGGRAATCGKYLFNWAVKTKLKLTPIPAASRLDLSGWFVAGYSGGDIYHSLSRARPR
UniProt Q9WMX2, 2420-3010 limits assumed: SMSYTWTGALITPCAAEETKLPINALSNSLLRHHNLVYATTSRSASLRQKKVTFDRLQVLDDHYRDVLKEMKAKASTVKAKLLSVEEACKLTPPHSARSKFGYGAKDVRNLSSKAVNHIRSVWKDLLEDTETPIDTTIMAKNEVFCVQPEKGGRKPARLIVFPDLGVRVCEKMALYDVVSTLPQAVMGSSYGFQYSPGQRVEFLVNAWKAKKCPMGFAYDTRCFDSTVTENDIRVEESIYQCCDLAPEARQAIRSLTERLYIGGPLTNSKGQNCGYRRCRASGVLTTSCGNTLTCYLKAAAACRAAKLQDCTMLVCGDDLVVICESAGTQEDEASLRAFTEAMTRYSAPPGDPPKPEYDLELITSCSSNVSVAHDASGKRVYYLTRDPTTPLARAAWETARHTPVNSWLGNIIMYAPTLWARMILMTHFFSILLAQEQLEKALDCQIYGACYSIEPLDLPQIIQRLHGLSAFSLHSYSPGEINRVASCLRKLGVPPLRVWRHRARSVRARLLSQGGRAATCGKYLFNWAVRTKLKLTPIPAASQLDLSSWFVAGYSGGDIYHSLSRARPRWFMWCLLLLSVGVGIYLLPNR

What was measured:
[1] = molecular target: NS5B from the BK strain (genotype 1b) (Hepatitis C virus genotype 1b, UniProt P26663); assay: Hepatitis C polymerase (NS5B, BK strain) inhibition, radioactive filter assay; conditions: read-out: BK IC50; NS5B BK strain (genotype 1b)
Text: (§1) The ability of the compounds of the present invention to inhibit Hepatitis C Polymerase was established by the following experimental procedure:
NS5B from the BK strain (genotype 1b) is expressed in E coli as a protein in which the 21 C-terminal amino acids are replaced with a short linker and a hexahistidine tag (GSHHHHHH). The purified protein is mixed with radioactive nucleotides and allowed to replicate a heteropolymeric RNA substrate, primed by an endogenous short hairpin, resulting in an approximately 760 nt product. The radioactive product is captured on a filter and quantitated after removal of the unincorporated nucleotides.
(§2) • 0.5M Na Phosphate buffer. Per liter, weigh 134 gr Na2HPO4.7H2O, add water to 900 ml. Adjust pH to 7.0 with phosphoric acid. Top off with water to 1 L. • Dilute nucleotides 1:1000 to 10 μM (GTP and CTP) or 1:100 to 100 μM (ATP and UTP) into RNase free water. Procedure: • (1) Compounds 10 μl at […] in 15% dimethylsulfoxide (DMSO) When starting from 100 μg/ml compound stock in 1% DMSO: Dispense 5 μl 30% DMSO per well Dispense 5 μl compound (100 μg/ml) per well. When starting from 50 μg/ml compound stock in 15% DMSO: Add 10 μl compound per well.
Add 20 μl enzyme mix into each well of the assay plate. Incubate compound and enzyme at room temperature for 15 minutes • (3) Template mix—prepare ahead […]

[2] = molecular target: BB7 RNA-dependent RNA polymerase hepatitis C virus protein (Con1 HCV sequence) (Hepatitis C virus genotype 1b, UniProt Q9WMX2); assay: Hepatitis C polymerase (BB7) inhibition; format: biochemical; conditions: read-out: BB7 IC50; BB7 (Con1) NS5B
Text: For purposes of this invention, the term “BB7” denotes an RNA-dependent RNA polymerase hepatitis C virus protein sequence which is derived from HCV replicon. A discussion of BB7 and related technology can be found in Blight, K. et al. (2000) Science 290:1972-1974. BB7 can be licensed from Apath, LLC (893 North Warson Road, Saint Louis Mo. 63141, USA). BB7 is also referred to as Con1 HCV sequence and discussions of Con1 can be found in the following references: Lohmann, V. et al. (1999) Science 285:110-113; Pietschmann, T. et al. (2001) J. Virol. […]:1252-1264; Lohmann, V. et al. (2001) J. Virol. 75:1437-1449.
as §1, §2
Add 20 μl enzyme mix into each well of the assay plate. […]

Compound: CCCC1(CC(=O)O)OCCc2c1[nH]c1c(C)c(OCCO)cc(C#N)c21 (centres unmarked)
- IC50 [1]: < 500 nM
- IC50 [2]: < 500 nM
